According to publication PMC8489083:
Construct, isoform or probe ends are uncertain for at least one entry.

Test system: ArcA-P (phosphorylated ArcA-His6)
Test: EMSA
Conditions: 0-2.0 ug, residues 1-238, probe letters rebuilt from the primers and the genome

Sequence | binding result (10 mM MgCl2, recombinant protein) | binding result (10 mM MgCl2, EMSA: 50 ng DNA, 100 mM Tris-HCl pH 7.5, 10 mM MgCl2, 2 mM DTT, 100 mM KCl, 10% glycerol, 30 min at 37 C, 6% PAGE in 0.5x TBE, GelRed stain, recombinant protein)
GGTAATAGTTTGCCGTCCCGGTAAGGTGGTTTCCAAATCGGTAGCACAGCGTTCAAATTTGAGCCGTGGATCGAGCGGCGTAACCCTAACTTGATGCTGGAGCGTGTTTTCTGACGGTAACTGGCTGATCACAAAGGATTCTGCGGCTTGCGTAATGCTCGACGGCTCCTGATAGGTCGGTTCAGCATTGGCGGCCATGCCATTTTCGTTTAAGAAAAGGCAGAATATGCCGATAAACAAACCAATAGGGCGAGTCGCCTTGGACACTGGCGTTGAGAAAAACACAAAACGTCTCCTGTTATGCAAAATACCTCTGATATCCTAAGGGGTATACGAGTTATAAGAAACACTTTAAATACCCCTGGGAGTAGCACGTTA (double strand) [cheV promoter] | binds | 
CGTACTTCCCGGCTAAGCCGGGAGCTCATCGCTTTTCAGTATGATATTACGTTATAAACGGAACTGGTCACCCAGATATACCCGTTTAACATGTTCATTTTCCAGAATCTCTGCCGGAGTCCCATGTGCGATCATATGTCCTTGACTTACGATGTAGGCATGCTCGCACACATCCAACGTTTCCCGCACATTGTGGTCGGTGATCAGAACGCCCAGCCCGCTATCACGCAGGTGTTTAATGATGTTCTTAATGTCGATAACCGAAATCGGGTCTACGCCGGCAAAAGGCTCATCCAGCAGGATAAATTTAGGATTGGCGGCTAGGGCGCGGGCAATTTCTACTCGGCGAC (double strand) [rpoN promoter] |  | binds
